Sequence variants of PSTVd loop 15 after infection

Values reported by Wu et al. 2024 (doi:10.1371/journal.ppat.1012142).

PSTVd intermediate strain, loop 15: wild type GGAAACCGCUACUAC, pool pattern GGAAACCGNNNNNNC; upper and lower strand joined, each 5' to 3', the first 7 letters being the upper strand, closing pairs included.

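A pool of all variants was put on leaves of three Nicotiana benthamiana plants. Progeny were sequenced from the inoculated region (day 5), the margin of the inoculated leaf (day 10) and systemic leaves (day 12).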

Values are reads per thousand in the sample; higher means more abundant, 0 means not found.
Each value is the mean of three plants.
"Pool" is the share in the plasmid pool used as inoculum, on the same scale.
The inoculated region was read from the minus strand, the other sites from the plus strand.
IR is the inoculated region, LM the leaf margin, Sys the systemic leaves.
Samples held 43,870 to 66,106 reads, so the smallest values rest on one or two reads.
The authors trace changes outside the varied positions to PCR and sequencing errors or to mutation in the plant; presence does not show that a variant is infectious alone.
Wild type was 33.9 per thousand in the pool and the most common sequence in every sample (inoculated region 202, 200, 159; leaf margin 724, 746, 710; systemic leaves 856, 883, 880).

For GGAAACCGACAGAAC (pool 0.304) the result was IR 0.306; LM 0.0980; Sys 0.0439. With GGAAACCGCCCCGAC (pool 0.288) the assay gave IR 0.253; LM 0.00668; Sys 0.00537. GGAAACCGCUGUGGC (pool 0.192) read IR 0.119; LM 0.00539; Sys 0.0130. For GGAAACCGGCUUGUC (pool 0.272) the result was IR 0.104; LM 0.0141; Sys 0.00537. GGAAACCGGGUCCCC (pool 0.144) read IR 0.141; LM 0.0336; Sys 0.

GGAAACCGGAUCUGC (pool 0.256) gave IR 0.119; LM 0.0134; Sys 0. For GGAAACCGGACAGUC (pool 0.192) the result was IR 0.0870; LM 0.00742; Sys 0. With GGAAACCGUCUAUGC (pool 0.176) the assay gave IR 0.0680; LM 0.0269; Sys 0. GGAAACCGAUAUCAC (pool 0.176) gave IR 0.385; LM 0.0958; Sys 0.0515. GGAAACCGUCCGACC (pool 0.176) read IR 0.0729; LM 0; Sys 0.00537.

With GGAAACCGAUCUGGC (pool 0.208) the assay gave IR 0.147; LM 0.0134; Sys 0.00537. GGAAACCGCCUGACC (pool 0.272) read IR 0.185; LM 0.0208; Sys 0.0107. GGAAACCGGCGGUCC (pool 0.208) read IR 0.134; LM 0.0134; Sys 0.00537. With GGAAACCGUUGGGCC (pool 0.256) the assay gave IR 0.102; LM 0.0175; Sys 0. With GGAAACCGGAUCACC (pool 0.0960) the assay gave IR 0.0495; LM 0; Sys 0.

GGAAACCGCCGCACC (pool 0.304) read IR 0.126; LM 0.00539; Sys 0. GGAAACCGAAGAUUC (pool 0.272) gave IR 0.392; LM 0.0121; Sys 0.00537. GGAAACCGCGGAAAC (pool 0.256) read IR 0.0694; LM 0; Sys 0. GGAAACCGUUGUUGC (pool 0.160) gave IR 0.0831; LM 0; Sys 0. With GGAAACCGAAACGGC (pool 0.272) the assay gave IR 0.0924; LM 0.00539; Sys 0.

For GGAAACCGAAGCCUC (pool 0.224) the result was IR 0.116; LM 0.00539; Sys 0. With GGAAACCGCAUACUC (pool 0.208) the assay gave IR 0.0860; LM 0.00539; Sys 0. For GGAAACCGGUUGAGC (pool 0.160) the result was IR 0.102; LM 0.0134; Sys 0. With GGAAACCGCCAUAAC (pool 0.224) the assay gave IR 0.395; LM 0.109; Sys 0.0462. GGAAACCGAGUCUGC (pool 0.176) read IR 0.0934; LM 0.00539; Sys 0.

Extract of 2 entries:

sequence,pool,IR,LM,Sys
GGAAACCGUUGUUGC,0.160,0.0831,0,0
GGAAACCGGCGGUCC,0.208,0.134,0.0134,0.00537